Reference: publication PMC10281000 (Chembiochem : a European journal of chemical biology, 2021)

Tested on: O=C(O)CCl
Assay: purified protein
Settings: pH 9.5; 25.0 °C

## RSc1362 (Ralstonia pseudosolanacearum GMI1000)
  Km: 60 ± 20 µM
  kcat/Km: 140000 M⁻¹ s⁻¹
